# In the supplement of paper PMC9931576:
# Human monoclonal antibodies against the spike receptor-binding domain (heavy:light variable regions). IC50 against pseudoviruses bearing the spike of naturally observed variants; lower = stronger; >10 µg/ml means not reached at the top dose. No active / inactive call. The stated detection limit is 0.0005 µg/ml; values near or below 0.001 µg/ml lie at the floor of the assay.
# What was measured:
# Experiment in all cases: pseudovirus neutralization IC50; higher = weaker neutralization
# [1] = target: SARS-CoV-2 Omicron BA.1 spike pseudovirus
# Experimental: (§1)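 Single-round VSV luciferase pseudovirus mixed with antibody dilutions for 1 h and put on Huh-7 cells for about a day; IC50 from the dose curve.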
# [2] = target: SARS-CoV-2 Omicron BA.2 spike pseudovirus
# Experimental: as §1
# [3] = target: SARS-CoV-2 Omicron BA.2.75 spike pseudovirus
# Experimental: as §1
# [4] = target: SARS-CoV-2 Omicron BA.5 spike pseudovirus
# Experimental: as §1
# [5] = target: SARS-CoV-2 Omicron XBB spike pseudovirus
# Experimental: as §1
# [6] = target: SARS-CoV-2 early D614G spike pseudovirus
# Experimental: as §1
# [7] = target: SARS-CoV-2 Omicron BQ.1.1 spike pseudovirus
# Experimental: as §1
Binder,pseudovirus neutralization IC50 [1] [µg/mL],pseudovirus neutralization IC50 [2] [µg/mL],pseudovirus neutralization IC50 [3] [µg/mL],pseudovirus neutralization IC50 [4] [µg/mL],pseudovirus neutralization IC50 [5] [µg/mL],pseudovirus neutralization IC50 [6] [µg/mL],pseudovirus neutralization IC50 [7] [µg/mL]
Ehling_mAb-50 (protein) chain 1: QVQLQESGPGLVNPSETLSLTCGVSGYSISSGFYWGWIRQPPGKGLEWIGSIYHRGSTFYNPSLKSRVTISVDRSKNQFSLRLSSVTAADTAVYYCARGEVLTSGGYNARFDPWGQGTLVTVSS chain 2: DIQMTQSPSTLSASVGDSVTITCRASQSISLWLAWYQQKPGKAPKVLIYETSSLESGVPSRFSGSGAGTEFTLTISSLQPDDFATYYCQQYISYPLTFGGGTKVEIK,> 10,0.931,> 10,0.973,> 10,0.471,
BG4-25 (protein) chain 1: EVQLVESGGGLIQPGGSLRLSCAASGITVVRNYMTWVRQAPGKGLEWVSVIYSGGTTYYADSVKGRFTISRDNSKNTMYLQMNSLRAEDTAIYYCARDLEVVGAMDVWGQGTTVTVSS chain 2: EIVLTQSPGTLSLSPGERATLSCRASQSVPSSYLAWYQQKPGQAPRLLIYGASSRATGIPDRFSGSGSGTDFTLTISRLEPEDFAVYYCQQYGSPMYTFGQGTKLEIK,1.97,2.09,0.939,4.34,> 10,0.0044,> 10
BD56-042 (protein) chain 1: QVQLVESGGGVVQPGRSLRLSCAASGLTFSSYGMHWVRQAPGKGLEWVAVIWYDGSTKYYADSVKGRFTISRDNSKNTLYLQMNSLRAEDTAVYYCAKDLQGSAWYTFDDWGQGTLVTVSS chain 2: NFMLTQPHSVSESPGKTVTISCTRSSGFIASNYVQWYQQRPGSAPTTVIYEDNQRPSGVPDRFSGSIDSSSNSASLTISGLKTEDEADYYCQSYDSSFHLVVFGGGTKLTVL,> 10,> 10,> 10,> 10,> 10,> 10,> 10
BD56-007 (protein) chain 1: EVQLVESGGQLVQPGRSLRLSCAASGFTFEDYAMHWVRQAPGRGLEWVSGIGWNSGVIGYADSVKGRFIISRDNAENSLYLQMRSLRAEDTALYYCAKEIEAVNSEGYALDVWGQGTTVTVAS chain 2: QSALTQPASMSGSPGQSITISCTGTSSDVGAYNFVSWYQQHPGKAPKLLIYEVNYRPSGVSSRFSGSKSGTTASLTISGLLAEDEAHYYCTSYTSSSSVLFGGGTKLAVL,0.529,0.483,0.541,> 10,> 10,0.00932,> 10
BD56-008 (protein) chain 1: EVQLVQSGGGLVQPGGSLKLSCAASGFTFSGSAIYWVRQASGKGLEWVGRIRSRANSYATAYAASVKGRFSISRDDSKNTAYLQMNSLKMEDTAVYYCTRHGTEGVDLVPTIPWNWLDPWGQGTLVTVFS chain 2: QSVLTQPPSVSGAPGQRVTISCTGSSSNIGAGYDVHWYQQLPGRAPKLFIYGNTNRPSGVPDRFSGSKSGTSASLAITGLQAEDEADYYCQSYDNSLSGSEVFGTGTKVTVL,> 10,> 10,> 10,> 10,> 10,> 10,> 10
BD56-048 (protein) chain 1: EVQLVESGGGLVQPGRSLRLSCAASGFIFEDYDMHWVRQAPGKGLEWVSGSSWNSGTIGYADSVQGRFTIIRDNAHNSVYLQMNRLRVEDTALYFCAKEDRKGDSGDDRPFDYWGQGTLVTVSS chain 2: SYVLTQPPSVSVAPGQTARITCEGNNIGSKSLHWYQQKPGQAPVLVVYDDGDRPSGIPERFSGSNSGNTATLTISRVEAGDEADYYCQVWDSSGDHSYVFGTGTKVSVL,0.0778,0.0905,0.0672,0.167,> 10,0.0345,> 10
BD56-033 (protein) chain 1: QVQLVESGGGVVQPGRSLRLSCAASGFTFSNYAFHWVRQAPGKGLEWVALISDDGRDKFYADSVKGRFTISRDNSKNTLSLQMNSLRGDDTAVYFCARDDRTVSPVSFFDCWGQGTLVTVSS chain 2: DIQMSQSPSSLSASVGDRVTITCRASQSIQNYLNWYQFSPGKAPKLLIFDASSLQSGVPSRFSGSGSGTEFTLTISSLHPEDFATYYCQQSYNTPPWTFGQGTKVEIK,> 10,> 10,> 10,> 10,> 10,> 10,> 10
BD56-038 (protein) chain 1: EVQLVESGGGLVQPGGSLRLSCEASGFTFSRYWMHWVRQAPGKGLVWVSRINSDGSRTNYVDSVKGRFTISRDNAKNTLYLQLNSLRAEDTAVYYCARDLEYYDRSGDYKSDCYFDYWGQGTLVTVSS chain 2: QSALTQPPSVSGAPGQRVTISCTGSSSNIGAGYDVHWYQHLPGTAPKALIYGNTNRPSGVPDRFSGSRSGTSASLAITGLQAEDEGIYYCQSYDSSLSVLFGGGTKLTVL,5.1,> 10,> 10,8.41,> 10,0.607,> 10
BD56-020 (protein) chain 1: QVQLVQSGAEVKKPGSSVKVSCKASGGTFSSDTISWVRQAPGQGLEWMGGIIPMFGSTNYAQKFQGRVTITADESTSTAYMELNSLRSEDTAVYYCARDWKPGGYSGYDWTDMYYFDYWGQGTLVTVSS chain 2: DIVMTQSPDSLAVSLGERATINCKSSQSVLYSSNNKNYLTWYQQKPGQPPKLLIYGASTRESGVPDRFSGSGSGTDFTLTISSLQAEDVAVYYCQQYYSIPRTFGQGTKVEIK,0.407,6.11,2.34,5.41,6.41,0.221,> 10
BD56-052 (protein) chain 1: EVQLVESGGGLVQPGGSLRLSCAASGFAFSRYDMHWVRQGTGKDLEWVSTIGTGGDTYYADSVKGRFTISRENAHNSLNLQVNSLRAEDTAVYHCARGGQDDLGWYFDLWGRGTLVTVSS chain 2: DIQMTQSPSSLSASIGDRVTITCRARQSISSYLNWYQQRPGKAPKLLIYAASTLQSGVPSRFSGSGSGTDFTLTISSLQPEDFATYYCQQSYTMPPVTFGPGTRVDIK,> 10,> 10,> 10,> 10,> 10,6.67,> 10
BD56-031 (protein) chain 1: QVQLVQSGAEVKKPGSSVKVSCKASGGTFSIYAISWVRQAPGQGLEWMGRIIPNFGIANFAQRFQGRVTITADKSTSTAYMELSSLRSEDTAVYYCARGVESSGYLDHDAFDIWGQGTLVTVSS chain 2: DFQMTQSPSSLSASVGDRVTITCRASQSISSYLNWYQQKPGEAPKLLIYAASTLQSGVPSRFSGSGSGTDFTLTISNLQPEDFATYYCQQSYSATQTFGQGTKVEIK,0.00732,0.00355,0.00834,2.66,> 10,0.00417,> 10
BD56-003 (protein) chain 1: EVQLLESGGRLVQPGGSLRLSCATSGFTFNTYAMTWVRQAPGKGLEWVSAISSRGSSTYYADSVKGRFTISRDISKNTLYLQMNSLRAEDTAIYYCAKDHIEGYYGSESYWDYWGQGTLVTVSS chain 2: QSVLTQPPSASGTPGQRVTISCSGSSSNIGRNYVYWYQQLPGTAPKLLIYRNSQRPSGVPDRFSGSKSGTSASLAISGLRSEDEADYYCATWDDSLNGLWVFGGGTKLTVL,0.679,0.895,0.0152,0.708,> 10,0.00481,> 10
